Test results taken from publication PMC9176691, “Design, synthesis and biological evaluation of novel diosgenin–benzoic acid mustard hybrids with potential anti-proliferative activities in human hepatoma HepG2 cells” (Journal of Enzyme Inhibition and Medicinal Chemistry, 2022).

System: GES-1 cells
Assay: MTT cytotoxicity assay, normal GES-1
Assay type: cell-based, human
Conditions: read-out: IC50 GES-1, 48 h treatment, normal gastric epithelial cells, average ± SD of three independent experiments

Compound: O=C(O)c1ccc(N(CCCl)CCCl)cc1
- IC50: > 100 µM
